Measurements reported in PMC8125995, “In Vitro Antiplasmodial and Cytotoxic Activities of Compounds from the Roots of Eriosema montanum Baker f. (Fabaceae)” (Molecules, 2021).

Each molecule was assayed on 3D7 strain of Plasmodium falciparum (assay: In vitro antiplasmodial activity (SYBR Green, 48 h)). Settings: SI = CC50 (THP-1) / IC50 (P. falciparum 3D7).
Type: cell-based
Description: Continuous in vitro cultures of asexual erythrocyte stages of P. falciparum, chloroquine-sensitive 3D7 strain was maintained according to the procedure of Trager and Jensen. Strains were obtained from ATCC, Bei Resources. The host cells were human red blood cells (A+). […] Compound stock solutions were prepared in DMSO at 10 mg/mL (for an extract) and 1 mg/mL (for an isolated compound). Then, the solution is directly diluted in the medium; each test sample was applied in a series of eight 2-fold dilutions in a 96-well plate, starting with 100 µg/mL and 10 µg/mL for the crude extract and purified compounds, respectively, and tested in triplicate. The effect of compounds on the parasite growth was estimated, after 48 h incubation, by using the SYBR Green, a DNA intercalating compound. Artemisinin (Sigma-Aldrich, Machelen, Belgium), at an initial concentration of 100 ng/mL, was used as positive control in all experiments. The half-maximal inhibitory concentration (IC50) values were calculated from graphs.

Row | Compound | SI
1 | O=C(O)C[C@](O)(Cc1ccc(O)cc1)C(=O)O [Compound 1, eucomic acid] | 6577
2 | COc1cc(OC2OC(CO)C(O)C(O)C2O)cc2occ(-c3ccc(O)cc3)c(=O)c12 (centres unmarked) [Compound 2, 7-O-glucopyranosyl-isoprunetin] | 2846.9
3 | O=c1c(-c2ccc(O)cc2)coc2cc(O[C@@H]3O[C@H](CO)[C@@H](O)[C@H](O)[C@H]3O)cc(O)c12 [Compound 3, genistin] | 24.9
4 | COc1cc(O)cc2occ(-c3ccc(O)cc3)c(=O)c12 [Compound 5, isoprunetin] | 5264.3
5 | O=c1c(-c2ccc(O)c(O)c2)coc2cc(O)cc(O)c12 [Compound 6, Isoluteolin] | 2005.8
